Single amino acid changes in Zika NS2B-NS3 and viral growth

Protein: NS2B and the protease part of NS3 of Zika virus strain MR766. Positions count along the chain below; NS2B spans 2-131 and NS3 starts at 132.
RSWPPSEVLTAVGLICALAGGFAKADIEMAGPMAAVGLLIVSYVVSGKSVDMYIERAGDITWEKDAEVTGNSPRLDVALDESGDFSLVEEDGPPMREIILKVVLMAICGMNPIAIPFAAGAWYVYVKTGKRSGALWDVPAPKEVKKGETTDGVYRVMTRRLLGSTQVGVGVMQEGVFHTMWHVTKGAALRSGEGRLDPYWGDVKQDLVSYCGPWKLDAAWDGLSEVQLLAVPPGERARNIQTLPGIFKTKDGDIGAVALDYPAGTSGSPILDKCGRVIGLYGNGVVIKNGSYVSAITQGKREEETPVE

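Libraries of single mutants were passaged as virus pools on Huh-7.5 cells. Sequencing of three replicate libraries (two for positions 207-308) was averaged into one effect per change. The aim was to find sites where inhibitor-binding pockets cannot change.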

Scale: log2 effect, wild type = 0; the lower, the more harmful to the virus.
Substitutions are written as wild-type residue, site number, new residue.
This list holds changes to methionine only.
The region was split into three libraries (1-103, 104-206, 207-308).
Six mutants with high scores were retested singly and none clearly outgrew wild type, so positive values are not proof of better growth.
The authors count -1 or higher as tolerated. Position 1 is the last residue of NS2A.

- G147M -> -4.09
- E148M -> -2.01
- T149M -> -4.88
- T150M -> -2.12
- D151M -> -2.32
- G152M -> -5.56
- V153M -> -5.44
- Y154M -> -5.45
- R155M -> -5.92
- V156M -> -5.88
- T158M -> -2.26
- R159M -> -4.80
- R160M -> -3.44
- L161M -> -2.21
- L162M -> -1.75
- G163M -> -4.11
- S164M -> -1.60
- T165M -> -0.67
- Q166M -> -5.67
- V167M -> -5.82
- G168M -> -5.07
- V169M -> -5.72
- G170M -> -5.63
- V171M -> -4.87
- Q173M -> -2.21
- E174M -> -5.12
- G175M -> -4.52
- V176M -> -5.05
- F177M -> -5.72
- H178M -> -4.61
- T179M -> -5.37
- W181M -> -4.97
- H182M -> -3.99
- V183M -> -4.62
- T184M -> -5.78
- K185M -> -5.36
- G186M -> -5.29
- A187M -> -5.04
- A188M -> -4.57
- L189M -> -3.00
- R190M -> -6.42
- S191M -> -5.04
- G192M -> -4.11
- E193M -> -1.87
- G194M -> -5.42
- R195M -> -6.21
- L196M -> -2.36
- D197M -> -4.49
- P198M -> -6.62
- Y199M -> -2.35
- W200M -> -6.72
- G201M -> -5.94
- D202M -> -5.33

Data from the supplement of Ni et al. 2025, doi:10.1038/s41467-025-63602-z.